Results of unrelated studies side by side (data: NIAID ChemDB).

Common to all: whole-cell or culture tests; species: Mycobacterium tuberculosis

A number after MIC or MFC names an inhibition level or a share of isolates. Percent inhibition refers to the dose given; in toxicity tests it is the harm to the cells. Two numbers with a dash give a range or band. MIC bound comes from a single tested concentration. Zones are inhibition diameters on agar. An empty or dashed field is not shown. Conditions beyond the fields shown may differ between rows. ECn is the concentration giving n% inhibition of infection, replication or growth.

SMILES,read by,tested at,endpoint,setting,strain,value
COc1cc(N=C(N)N)ccc1-c1ccc(-c2ccc(N=C(N)N)cc2OC)o1,,,EC50,,,>12.5 µg/mL
CCOC(=O)c1ccc(N=Nc2c(C)[nH]n(C(=O)c3sc4ccc(Cl)cc4c3Cl)c2=O)cc1,agar diffusion / agar,40 µg/mL,inhibition,,,24%
CC(=O)Nc1ccc2c(-c3ccccc3)cc(N3CCN(C(C)=O)CC3)nc2n1,,,EC50,,H37Rv,>12.5 µg/mL
Cc1nn(-c2ccccc2)c2c1C(c1cn(-c3ccccc3)nc1-c1ccc(F)cc1)C1=C(NC(C)(c3cc(O)c(Cl)c(O)c3)NC1=O)O2,agar diffusion / agar,1 mg/mL,zone,,MTCC 300,2 mm
CC(C(=O)O)N1C(=O)C2C3C=CC(C3)C2C1=O,BACTEC,,MIC bound,,H37Rv,>12.5 µg/mL
CC(=O)N[C@@H](Cc1ccccc1)C(=O)Oc1cc(Cl)ccc1C(=O)Nc1ccc(Cl)c(Cl)c1,broth dilution,,MIC100,14 d,H37Rv,0.5 µM
Nc1ccc(Cl)cc1C(=O)Nc1ccc(F)cc1,,,MIC,,My 331/88,125 µM
C/C(=C\C(=O)Nc1ccccc1)Nc1c(C)n(C)n(-c2ccccc2)c1=O,BACTEC,,MIC,,H37Rv,≥12.8 µg/mL
Cc1nn(-c2ccccc2)c2c1C(c1cn(-c3ccccc3)nc1-c1ccc(Cl)cc1)C1=C(NC(C)(c3cc(O)c(Cl)c(O)c3)NC1=O)O2,agar diffusion / agar,1 mg/mL,zone,,MTCC 300,1.5 mm
Cn1c(-c2ccc(-c3cc(-c4cccs4)c(-c4cccs4)n3C)cc2)cc(-c2cccs2)c1-c1cccs1,BACTEC,6.25 µg/mL,inhibition,,H37Rv,0%
COc1cc(OC)c2cc([N+](=O)[O-])c3ccc(=O)oc3c2c1,resazurin,,MIC,,H37Rv,25 µg/mL
CCN(CC)c1ccc2nc3c4ccccc4c(=NC(=O)c4ccccc4-c4c5ccc(N(CC)CC)cc5[o+]c5cc(N(CC)CC)ccc45)cc-3oc2c1.[Cl-],BACTEC,,MIC bound,,H37Rv,≤12.5 µg/mL
CC1COc2c(N3CCN(C)CC3)c(F)cc3c(=O)c(C(=O)O)cn1c23,,,MIC,,891207,0.5 µg/mL
COc1ccc(C2OC(c3sc4ccc(Cl)cc4c3Cl)=NN2C(C)=O)cc1,agar diffusion / agar,40 µg/mL,inhibition,,,0%
Cc1nc(N)c2ncn([C@@H]3O[C@H](CO)[C@@H](O)[C@H]3O)c2n1,,,MIC,,Erdman (ATCC 35801),<1.56 µg/mL
Cc1ccc(NC(=S)NNC(=O)c2ccncc2)cc1,,,MIC,,INH resistant,10.88 µM
Cc1ccc(Nc2nc(C)c(C(/C=C/c3ccc(/C=C/C(=N\NC(=O)C[n+]4ccccc4)c4sc(Nc5ccc(C)cc5[N+](=O)[O-])nc4C)cc3)=N/NC(=O)C[n+]3ccccc3)s2)c([N+](=O)[O-])c1.[Cl-],BACTEC,,MIC bound,,H37Rv,>12.5 µg/mL
Cc1cc(Br)ccc1NC(=S)NNC(=O)c1ccncc1,,,MIC,,INH resistant,1.06 µM
CCC(=O)OCC1OC(n2ccc(O)cc2=O)C(O)C1O,BACTEC,,MIC bound,,H37Rv,>12.5 µg/mL
CSc1ccc(C2OC(c3sc4ccc(Cl)cc4c3Cl)=NN2C(C)=O)cc1,agar diffusion / agar,40 µg/mL,inhibition,,,5%
O=C(NNC(=S)Nc1ccccc1C(F)(F)F)c1ccncc1,,,MIC,,INH resistant,0.58 µM
CC(C)CCOc1ccc(NC(=S)Nc2ccc(OCCC(C)C)cc2)cc1,,,MIC,,H37Ra,2 µg/mL
Clc1ccccc1-c1nc(-c2ccncc2)no1,resazurin,6.25 µg/mL,inhibition,,H37Rv,20%
Cc1ccc(NC(=O)c2cc(Cl)ccc2N)cc1,,,MIC,,My 331/88,125 µM
OCCN(CCO)c1ccc2c(-c3ccccc3)cc(N(CCO)CCO)nc2n1,,12.5 µg/mL,inhibition,,H37Rv,0%
CN1C(=O)CC(NC(=O)CNC(=O)c2ccccc2)C1=O,BACTEC,,MIC bound,,H37Rv,>12.8 µg/mL
NNC(=O)c1ccncc1,,,MIC,,Bovine,0.4 µg/mL
COc1cc(-c2ccccc2)c2ccc(N3CCNCC3)nc2n1,,12.5 µg/mL,inhibition,,H37Rv,34%
COc1ccc(-c2nn(-c3ccccc3)cc2C2C3=C(NC(C)(c4cc(O)c(I)cc4Cl)NC3=O)Oc3c2c(C)nn3-c2ccccc2)cc1,agar diffusion / agar,0.1 mg/mL,zone,,MTCC 300,2 mm
CC(C)CCSc1ccc(NC(=S)Nc2ccc(SCCC(C)C)cc2)cc1,,,MIC,,H37Ra,2.5 µg/mL
CCCCCCCCCC(=O)N[C@H]1[C@H](Oc2c3cc4cc2Oc2ccc(cc2Cl)[C@@H](O[C@@H]2O[C@H](CO)[C@@H](O)[C@H](O)[C@H]2NC(C)=O)[C@@H]2NC(=O)[C@H](NC(=O)[C@@H]4NC(=O)[C@H]4NC(=O)[C@@H](Cc5ccc(c(Cl)c5)O3)NC(=O)[C@H](N)c3ccc(O)c(c3)Oc3cc(O)cc4c3)c3ccc(O)c(c3)-c3c(O[C@H]4O[C@H](CO)[C@@H](O)[C@H](O)[C@@H]4O)cc(O)cc3[C@H](C(=O)O)NC2=O)O[C@H](CO)[C@@H](O)[C@@H]1O,,,MIC,,L1912,64 µg/mL
Cc1cn([C@H]2C=C[C@@H](COC(=O)CNNC(=O)c3ccncc3)O2)c(=O)[nH]c1=O,,,EC50,,H37Rv,<6.25 µg/mL
CC(C)c1ccc(NC(=O)c2cc(Cl)ccc2N)cc1,,,MIC,,My 331/88,31 µM
c1ccc2c(c1)Nc1ccccc1O2,BACTEC,,MIC bound,,H37Rv,>12.5 µg/mL
Cc1ccc(NC(=S)NNC(=O)c2ccncc2)c(C)c1,,,MIC,,WT,2.59 µM
CC(=O)N1N=C(c2sc3ccc(Cl)cc3c2Cl)OC1c1ccc(O)cc1,agar diffusion / agar,40 µg/mL,inhibition,,,6%
CC[C@@H](CO)NCCN[C@@H](CC)CO,agar / visual reading,,MIC,,H37Rv,30.6 µM
COc1c(N2CC/C(=N/OCc3ccc(Cl)cc3)C(N)C2)c(F)cc2c(=O)c(C(=O)O)cn(C3CC3)c12,resazurin,,MIC,,H37Rv,0.125 µg/mL
Cc1ccc(-n2nnc3ccccc3c2=O)cc1,,,MIC,,My 331/88,>125 µM
CCn1cc(C(=O)O)c(=O)c2cc(F)c(N3CCN(CC(=O)OC[C@@H]4C=C[C@H](n5cc(C)c(=O)[nH]c5=O)O4)CC3)cc21,,,EC50,,H37Rv,<6.25 µg/mL
O=C(c1ccncc1)N1N=C(c2ccco2)CC1(O)C(F)(F)F,,,MIC,,RGH104,38.46 µM
O=c1cc(-c2ccc(O)c(-c3c(O)cc4oc(-c5ccc(O)cc5)cc(=O)c4c3O)c2)oc2cc(O)cc(O)c12,,,EC50,,,>12.5 µg/mL
OO,,0.0005 µM,inhibition,,H19,20%
NC(N)=N/N=C/c1oc(-c2ccc(S(=O)(=O)O)o2)c(-c2ccc(S(=O)(=O)O)o2)c1[N+](=O)[O-],BACTEC,,MIC bound,,H37Rv,>12.5 µg/mL
O=C(Nc1ccc(C(F)(F)F)cc1)c1cc(Br)ccc1O,broth dilution,,MIC100,14 d,H37Rv,1 µM
CC1=NN(C(=O)c2ccncc2)C(O)(C(F)(F)F)C1,,,MIC,,RGH101,22.89 µM
COC(=O)N1CCN(c2cc(-c3ccccc3)c3ccc(OC)nc3n2)CC1,,,EC50,,H37Rv,>12.5 µg/mL
CN(C)c1ccc(/C=N/N2C(=O)CSC2=S)c(Cl)c1,BACTEC,,MIC bound,,H37Rv,>12.5 µg/mL
O=C(Oc1cc(Cl)ccc1C(=O)Nc1cccc(C(F)(F)F)c1)c1cnccn1,broth dilution,,MIC100,14 d,H37Rv,1 µM
O=c1ccc2c(-c3ccccc3)cc(N(CCO)CCO)nc2[nH]1,,,EC50,,H37Rv,>12.5 µg/mL
COc1c(N2CC/C(=N/OCc3ccccc3)C(N)C2)c(F)cc2c(=O)c(C(=O)O)cn(C3CC3)c12,resazurin,,MIC,,H37Rv,4 µg/mL
O=C(Nc1ncc([N+](=O)[O-])s1)c1cc(Cl)cc(Cl)c1,BACTEC,,MIC,,H37Rv,12.5 µg/mL
Nc1ccc2c(-c3ccccc3)cc(N(CCO)CCO)nc2n1,,12.5 µg/mL,inhibition,,H37Rv,15%
O=C1C[C@@H](c2ccc(O)c(O)c2)Oc2c1c(O)cc(O)c2[C@H]1C(=O)c2c(O)cc(O)cc2O[C@@H]1c1ccc(O)cc1,,,MIC,,,>12.5 µg/mL
COc1cccc(CO/N=C2/CCN(c3c(F)cc4c(=O)c(C(=O)O)cn(C5CC5)c4c3OC)CC2N)c1OC,resazurin,,MIC,,H37Rv,8 µg/mL
COc1ccc(NC(=S)Nc2ccc(OC)cc2)cc1,,,MIC,,H37Ra,1 µg/mL
O=C1c2cc(Br)ccc2OC2CCON12,resazurin,6.25 µg/mL,inhibition,,H37Rv,4%
COc1cc2c3c(cc4cc5c(cc4c3c1OC)OCO5)N(C=O)CC2,resazurin,,MIC,,H37RvIr,>50 µg/mL
COC1=C(OC)C(=O)C([C@H]2COc3c(cc(OC)c(OC)c3OC)C2)=CC1=O,,,MIC,,H37Ra,12.5 µg/mL
CCCCc1ccc(NC(=S)Nc2ccc(OCCC(C)C)cc2)cc1,,,MIC,,H37Ra,0.5 µg/mL
NC(=O)c1cnccn1,,,MIC,,H37Rv,50 µg/mL
O=c1cc(-c2ccccc2)oc2ccc(-c3ccccc3-c3cc(=O)c4ccccc4o3)cc12,,,EC50,,,>12.5 µg/mL
COc1ccc(NC(=S)NNC(=O)c2ccncc2)cc1,,,MIC,,WT,10.31 µM
Cc1cc(S(=O)(=O)Nc2nnc3ccccn23)c(S)cc1Cl,BACTEC,,MIC bound,,H37Rv,>12.5 µg/mL
COc1cc(Br)ccc1CO/N=C1/CCN(c2c(F)cc3c(=O)c(C(=O)O)cn(C4CC4)c3c2OC)CC1N,resazurin,,MIC,,H37Rv,16 µg/mL
CC(=O)OC1C2CC(C)(C)CC2=C(C=O)C2(C=O)CC12C,BACTEC,,MIC,,H37Rv,≥12.5 µg/mL
O=c1cc(-c2cccc(-c3ccc4c(=O)cc(-c5ccccc5)oc4c3)c2)oc2ccccc12,,,MIC,,,>12.5 µg/mL
O=C(N/N=C/c1ccc(OCCCCn2cc(COc3ccccc3)nn2)cc1)c1ccncc1,,,MIC99,,H37Rv,0.39–0.78 µM
Cc1ccc(NC(=O)CC/C(CC(=O)C(C)(C)C)=N\NC(=O)c2cc3ccccc3cc2O)cc1C,BACTEC,,MIC bound,,H37Rv,>12.5 µg/mL
C=CCc1cc(OC)c(OC(C)=O)c(OC(C)=O)c1,agar / visual reading,,MIC,,H37Rv,208.3 µM
COc1ccc(-c2cc(=O)c3c(OC)c(-c4cc(OC)ccc4-c4cc(=O)c5c(OC)cc(OC)cc5o4)c(OC)cc3o2)cc1,,,MIC,,,>12.5 µg/mL
O=C(Nc1ccc(C(F)(F)F)cc1)c1ccc(Cl)cc1OS(=O)(=O)c1ccccc1,broth dilution,,MIC100,14 d,H37Rv,1 µM
CN(Cc1ccco1)NC(=O)C(=O)NCc1ccco1,BACTEC,,MIC bound,,H37Rv,>12.5 µg/mL
NC(N)=Nc1ccc(-c2ccc(-c3ccc(N=C(N)N)cc3Cl)o2)c(Cl)c1,,,MIC,,,12.5 µg/mL
CCCSc1ccc(NC(=S)Nc2ccc(OCCC(C)C)cc2)cc1,,,MIC,,H37Ra,0.1 µg/mL
O=C(Oc1ccc(Cl)cc1C(=O)Nc1ccc(C(F)(F)F)cc1)c1cnccn1,broth dilution,,MIC100,14 d,H37Rv,1 µM
CSc1ccc(NC(=S)Nc2ccc(SC)cc2)cc1,,,MIC,,H37Ra,0.5 µg/mL
C/C(=N\Nc1n[nH]c(=S)n1N)c1c(O)cc(C)oc1=O,BACTEC,,MIC bound,,H37Rv,>12.5 µg/mL
Cc1cc(N=C(N)N)ccc1-c1ccc(-c2ccc(N=C(N)N)cc2C)o1,,,EC50,,,>12.5 µg/mL
COc1ccc2[nH]c3c(C)c4ccncc4c(C)c3c2c1,,,MIC,,KM-R,0.8 µg/mL
O=C(c1ccncc1)N1N=C(c2ccccc2)CC1(O)C(F)(F)F,,,MIC,,RGH101,74.63 µM
Cc1ccccc1NC(=S)NNC(=O)c1ccncc1,,,MIC,,WT,5.44 µM
Cc1ccc(NC2=CC(=O)C(=O)c3ccccc32)c(C)c1,resazurin,6.25 µg/mL,inhibition,,H37Rv,103%
CC(=O)Nc1ccc(/C=N/NC(N)=S)cc1,,,MIC50,,14 strains,0.1 µg/mL

Again, the opening 7 rows:

{"SMILES": "COc1cc(N=C(N)N)ccc1-c1ccc(-c2ccc(N=C(N)N)cc2OC)o1", "endpoint": "EC50", "value": ">12.5 µg/mL"}
{"SMILES": "CCOC(=O)c1ccc(N=Nc2c(C)[nH]n(C(=O)c3sc4ccc(Cl)cc4c3Cl)c2=O)cc1", "read by": "agar diffusion / agar", "tested at": "40 µg/mL", "endpoint": "inhibition", "value": "24%"}
{"SMILES": "CC(=O)Nc1ccc2c(-c3ccccc3)cc(N3CCN(C(C)=O)CC3)nc2n1", "endpoint": "EC50", "strain": "H37Rv", "value": ">12.5 µg/mL"}
{"SMILES": "Cc1nn(-c2ccccc2)c2c1C(c1cn(-c3ccccc3)nc1-c1ccc(F)cc1)C1=C(NC(C)(c3cc(O)c(Cl)c(O)c3)NC1=O)O2", "read by": "agar diffusion / agar", "tested at": "1 mg/mL", "endpoint": "zone", "strain": "MTCC 300", "value": "2 mm"}
{"SMILES": "CC(C(=O)O)N1C(=O)C2C3C=CC(C3)C2C1=O", "read by": "BACTEC", "endpoint": "MIC bound", "strain": "H37Rv", "value": ">12.5 µg/mL"}
{"SMILES": "CC(=O)N[C@@H](Cc1ccccc1)C(=O)Oc1cc(Cl)ccc1C(=O)Nc1ccc(Cl)c(Cl)c1", "read by": "broth dilution", "endpoint": "MIC100", "setting": "14 d", "strain": "H37Rv", "value": "0.5 µM"}
{"SMILES": "Nc1ccc(Cl)cc1C(=O)Nc1ccc(F)cc1", "endpoint": "MIC", "strain": "My 331/88", "value": "125 µM"}